# Measured values: the supplement of paper PMC9931576
# Human monoclonal antibodies against the spike receptor-binding domain (heavy:light variable regions). IC50 against pseudoviruses bearing the spike of naturally observed variants; lower = stronger; >10 µg/ml means not reached at the top dose. No active / inactive call. The stated detection limit is 0.0005 µg/ml; values near or below 0.001 µg/ml lie at the floor of the assay.
# Experiments:
# Assay in all cases: pseudovirus neutralization IC50; higher = weaker neutralization
# [1] = target: SARS-CoV-2 Omicron BA.1 spike pseudovirus
# Procedure: (§1)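 Single-round VSV luciferase pseudovirus mixed with antibody dilutions for 1 h and put on Huh-7 cells for about a day; IC50 from the dose curve.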
# [2] = target: SARS-CoV-2 Omicron BA.2 spike pseudovirus
# Procedure: as §1
# [3] = target: SARS-CoV-2 Omicron BA.2.75 spike pseudovirus
# Procedure: as §1
# [4] = target: SARS-CoV-2 Omicron BA.5 spike pseudovirus
# Procedure: as §1
# [5] = target: SARS-CoV-2 Omicron BQ.1.1 spike pseudovirus
# Procedure: as §1
# [6] = target: SARS-CoV-2 Omicron XBB spike pseudovirus
# Procedure: as §1
# [7] = target: SARS-CoV-2 early D614G spike pseudovirus
# Procedure: as §1
Binder,pseudovirus neutralization IC50 [1] [µg/mL],pseudovirus neutralization IC50 [2] [µg/mL],pseudovirus neutralization IC50 [3] [µg/mL],pseudovirus neutralization IC50 [4] [µg/mL],pseudovirus neutralization IC50 [5] [µg/mL],pseudovirus neutralization IC50 [6] [µg/mL],pseudovirus neutralization IC50 [7] [µg/mL]
BD56-1727 (protein) chain 1: QVTLRESGPALVRPTQTLTLTCTFSGFSLNTNGMSVSWIRQPPGKALEWLARIDWDGDKYYITSLKTRLTISKDTSKNQVVLTMTNMDPVDTATYYCARIREVRGGDYGMDVWGQGTTVAVSS chain 2: QSVLTQPPSASGTPGQRVTISCSGSSPNIGRNTVNWYHHLPGTAPKLLIYSDNQRPSGVPVRFSGSKSGTSASLAISGLQSDDEAEYYCGTWDDSLNGWVFGGGTKLTVL,> 10,0.00138,> 10,0.00279,> 10,> 10,0.0189
COV2-2734 (protein) chain 1: QVQLQESGPGLVKPSETLSLTCTVSGGSVSSGSYYWSWIRQPPGKGLECIGYIYYSGSSNYNPSLKSRVTISVDTSKNQFSLKMSSVTAADTAVYYCAGSPVPPTIVGASYWGQGTLVTVSS chain 2: NFMLTQPHSVSESPGKTVTFSCTGSSGSIASNYVQWYQQRPGSAPTTVIYEDNQRPSGVPDRFSGSIDSSSNSASLTISGLKTEDEADYYCQSYDGINRWLVFGGGTKLTVL,> 10,> 10,> 10,> 10,> 10,> 10,> 10
BD56-1734 (protein) chain 1: EVQLVESGGGLVQPGGSLRLSCAASGFTFSSYDMHWVRQATGKGLEWVSTIGTSGDTYYPGSVKGRFTISRENAKNSLSLQMNSLRAGDTAVYYCARIKYDSRGFHWYLDLWGRGTLVTVSS chain 2: DIQMTQSPSSLSASVGDRVTITCRASQSISGYLNWYQQKPGKAPKLLIYAASSLQSGVPSRFSGSGSGTDFTLTITNLQPEDFATYYCQQSYTNPLYTFGQGTKLEIK,> 10,> 10,> 10,> 10,> 10,> 10,> 10
BD56-1735 (protein) chain 1: QVQLVESGGGVVQPGRSLRLSCGASGFSFSDYAMHWVRQAPGKGLEWVAVTSYDGSIKQYGDSVRGRFTVSRDNSKNTVFLQMNSLRDEDTAVYYCAREGHGSGSYDQRVAPGDYFDSWGQGTLVTVSS chain 2: SYVLTQPPSVSVAPGRTARITCGGNDIGSKSVHWYQQKPGQAPVLVIYYDHDRPSGIPERFSGSNSGNTATLTISRVEAGDEADYYCQVWDGSSVFYVFGSGTKVTVL,> 10,> 10,> 10,> 10,> 10,> 10,> 10
COV2-2848 (protein) chain 1: QVQLVESGGGVVQPGRSLRLSCAASGFTFSRYAMYWVRQAPGKGLEWVALISYDGRNEYYADSVKGRFTISRDNSKNTLYLQMNSLRAGDSAVYYCARDLAYHPYRDYGDDDYYYYYGMDVWGQGTTVTVSS chain 2: SYELTQPPSVSVSPGQTARITCFGDALPKQYAYWYQQKPGQGPVLVIYKDSERPSGIPERFSGSTSGTTVTLTISGVQAEDEADYYCQSADSSGTYRVFGGGTKLTVL,> 10,> 10,> 10,> 10,> 10,> 10,> 10
BD56-1742 (protein) chain 1: QVQLVQSGAEVKKPGASVKISCKASGYTFTTNFLHWVRQAPGQGLEWMGIINPSGFSSTYAQKFQGRVTMTGDTSTRTVYMELSSLISEDTAIYYCARGHTVAVAGLLDYWGQGTLVTVSS chain 2: QTVVTQEPSLTVSPGGTVTLTCASSTGAVTSTYFPNWFQQKPGQAPRALIYSTTNKPSWTPARVSGSLLGGKAALTLSGVQAEDEADYYCLLYDGDTWVFGGGTKLTVL,0.0391,0.0107,0.0777,> 10,> 10,> 10,0.00219
BD56-1744 (protein) chain 1: QVQLVQSGAEVKKPGSSVKVSCKASGGTFSSNTISWVRQAPGQGLEWMGRIIPILGIPDYAQKFQGRVTINADKSTSTAYMELSSLRSEDTAVYYCAKDTGYSGYLSAYYFEYWGQGTLVTVSS chain 2: QSVLTQPPSVSGAPGQRVTISCTGSNSNIGAGYDVHWYQQLPGTAPNLLIYGNGNRPSGVPDRFSGSKSGTSASLAITGLQAEDEADYYCQSYDSSLSGSVFGGGTKLTVL,0.0936,0.0515,0.185,2.5,> 10,> 10,0.19
BD56-1746 (protein) chain 1: EVQLVESGGGLEQPGGSLRLSCAASGFTFSNHDMHWVRLSTVKGLEWVSAIGTASDTYYADSVKGRFTISRENAKNSLYLQMNSLRAGDTAVYYCARGADILTGYNNWYFDLWGRGTLVTVSS chain 2: DIQMTQSPSSLSASVGDRVTITCRAGQRIGTYLHWYQQKPGKAPKLLIYAATSLQSGVPSRFSGRGSGTDFTLTISSLQPEDFATYYCQQSYSTPPATFGPGTKVDIK,> 10,> 10,> 10,> 10,> 10,> 10,> 10
BD56-1747 (protein) chain 1: EVKLVESGGGLVQPGRSLRLSCAVFGFTFDDYAMHWVRQAPGKGLEWVSGINWNGGDTGYVDSVKGRFTISRDNSKKSLYLQMNSLRAEDTALYYCAKDSRGGYDFWNGPLDVWGQGTTVTVSS chain 2: EIVLTQSPGTLSLSPGERATLSCRASQIFDGGSLAWYQQKPGQAPRLLIYGTSSRATGIPDRFSGSGSGTDFTLTISRVEPEDFAVYYCQQYGSSPLTFGPGTKVDIK,0.322,0.177,0.248,1.06,2.31,3.71,0.185
BD56-1748 (protein) chain 1: QVQLVESGGGVVQPGRSLRLSCAASGFTFSNYDMHWVRQAPGKGLEWVAVISSDGSGKFYADSVKGRFTISRDNSKTTVFLQMSSLRSDDTAVYYCAKDVGSAAAVDYFYHWGQGTLVTVSS chain 2: DIQMTQSPSSLSASVGDRVTITCRASQNIFTYLSWYQQKPGKAPQLLIYAASSLRSGVPSKFSGSGSGTDFTLTISSLQPEDSATYYCQQSYNTPPWTFGQGTKVEIK,> 10,> 10,> 10,> 10,> 10,> 10,1.19
BD56-1749 (protein) chain 1: QVHLVQSGAEVKKPGSSVKVSCKASGDTFSTYTLSWVRQAPGQGLEWMGRIIPSLGIANYAQIFKGRVTITADTSTTTAYMELSSLRSEDTAVYYCARDSPLHLLSFYYYAMDVWGQGTTVTVSS chain 2: QSVLTQPSSVSGTPGQRVTISCSGSSSNIGRNTVNWYQQLPGTAPKLLISNNSQRPSGVPDRFSGSKSGTSASLAISGLLSEDEAAYYCSAWDDSLDGVVFGGGTKLTLL,0.00187,0.00163,0.00265,> 10,> 10,> 10,0.00533
BD56-1751 (protein) chain 1: QVQLVESGGGVVQPGRSLRLSCAASGFIFSSYAMHWVRQAPGKGLEWVAVISYDGSNKHYADVVKGRFTISRDKNKNTLYLEMNSLRAEDTAVYYCARVSSNYYDSSGYSPYDYYGMDVWGQGTTVTVSS chain 2: EIVLTQSPGTLSLSPGERATLSCRASQSFSSDYLAWYQQKPGQAPRLLIYGASSRATGIPDRFSGSGSGTDFTLTISRLEPEDFAVYYCQQYGSPWAFGQGTKVEIK,0.194,0.188,0.3,> 10,> 10,> 10,0.346
